A mixed list of measured activities; the numbers were collected in NIAID ChemDB.

Shared fields: tests in culture; agent: Mycobacterium tuberculosis

Percent inhibition refers to the dose given; in toxicity tests it is the harm to the cells.

smiles,dose,measure,strain or isolate,method,value
COC1OC2COC1(OC)C1OC(C)(C)OC21,12.5 µg/mL,inhibition,H37Rv,BACTEC,0%
Cc1ccc(-c2cnc(Nc3ccc(OCCCN4CCN(C)CC4)cc3)c(C(N)=O)n2)cc1C,,MIC,H37Rv (ATCC 27294),resazurin,1 µg/mL
N#Cc1nc2cc(C(F)(F)F)ccc2nc1Cl,,EC50,H37Rv,,>12.5 µg/mL
Cc1c2oc3c(C)ccc(C(=O)NCCN4CCN(c5ccccc5)CC4)c3nc-2c(C(=O)NCCN2CCN(c3ccccc3)CC2)c(N)c1=O,,MIC bound,H37Rv,BACTEC,>12.5 µg/mL
CC1=CC(=Nc2[nH+]cc(-c3ccc(C)c(F)c3)nc2C(N)=O)CC(=O)N1CCN1CCOCC1,,MIC,H37Rv (ATCC 27294),resazurin,2 µg/mL
OCCOCn1cc(Cn2ncc3c(SCc4ccccc4)ncnc32)nn1,,EC50,H37Rv,BACTEC,<6.25 µg/mL
C#C[C@@]12O[C@]1(CO)[C@@H]1[C@@H](O)C[C@H]3C(C)(C)CCC[C@]3(C)[C@H]1CC2=O,,MIC,Resistant strains,,100 µg/mL
OC(c1cc(-c2ccccc2)nc2c1ccc1ccccc12)C1CCCCN1,,MIC,H37Ra,,12.5 µM
CNc1ncnc2c1cnn2Cc1cnnn1COCCO,,EC50,H37Rv,BACTEC,>12.5 µg/mL
CC1CN(c2cc3c(cc2F)c(=O)c(C(=O)O)cn3-c2ccc(F)cc2F)CCN1,,MIC90,64 strains,,1 µg/mL
C/C(=N\Nc1ccc2ccccc2n1)c1ccccc1O,,MIC,H37Ra,,1.56 µM
COc1cc(-c2cn3nc(S(N)(=O)=O)sc3n2)cc(OC)c1OC,,MIC,H37Rv,,>6.25 µg/mL
C=C(C)/C=C/[C@]12C[C@H](C)C3CC[C@](C)(N)[C@@H](CC[C@H]1C)[C@@H]32,,MIC100,H37Rv,resazurin,6 µg/mL
O=[N+]([O-])c1ccc(CS(=O)c2nnc(-c3ccc([N+](=O)[O-])s3)s2)cc1,,MIC,,,>6.25 µg/mL
CC(=O)O[C@H]1C[C@@H]2CC3(CC[C@]2(C)C2C[C@H](OC(C)=O)[C@@]4(C)C(CC[C@@H]4C(C)CCC(=O)NC(C)C)C21)OOC1(CCC(c2ccccc2)CC1)OO3,,MIC,,,>6.25 µg/mL
OCCOCn1cc(Cn2ncc3c(NCc4ccccc4)ncnc32)nn1,,EC50,H37Rv,BACTEC,>12.5 µg/mL
O=C(c1ccc(CCc2ccc(C(=O)C(Br)Br)cc2)cc1)C(Br)Br,,MIC,H37Rv,,6.25 µg/mL
CN(C)/C=N/S(=O)(=O)c1nn2c(/C=N/N=C(N)N)c(-c3ccc(Cl)cc3)nc2s1,6.25 µg/mL,inhibition,H37Rv,,58%
CCn1c2ccc(N)cc2c2c(N)c(-n3cccc3)ccc21,12.5 µg/mL,inhibition,H37Rv,BACTEC,95%
CCn1cc(C(=O)O)c(=O)c2cc(F)c(-n3cccc3)cc21,,MIC50,64 strains,,8 µg/mL
CN(C)CCCOc1ccc(Nc2ncc(-c3cccc(F)c3)nc2C(=O)O)cc1,,MIC,H37Rv (ATCC 27294),resazurin,>32 µg/mL
O=C(NN1C(=O)CCSC1c1ccccc1[N+](=O)[O-])c1ccncc1,,MIC,H37Rv,broth dilution / agar,0.56 µM
CC(C)(O/N=C(/C(=O)N[C@@H]1C(=O)N2C(C(=O)[O-])=C(C[n+]3ccccc3)CS[C@H]12)c1csc(N)n1)C(=O)O,,MIC,H37Ra,,128 µg/mL
Nc1nc(Cl)cc(Nc2ccc(CCO)cc2)n1,,MIC bound,H37Rv,BACTEC,>12.5 µg/mL
NNC(=O)c1ccncc1,,MIC,PR503,,0.63 µg/mL
CN(C)C(=S)C(N)=S,,MIC,,,250 µM
O=C(Nc1cnc2c(Cl)cc(NC(=O)OCc3ccccc3)nc2n1)OCc1ccccc1,,EC50,H37Rv,,>12.5 µg/mL
C1COCCN1.S=C(S)NN1CCOCC1,,MIC,H37Rv,BACTEC,≥12.5 µg/mL
O=C(O)c1cn(-c2ccc(F)cc2)c2cc(N3CCNCC3)c(F)cc2c1=O,,MIC50,64 strains,,4 µg/mL
COC(=O)/C=C(C)/C=C/C1OC(C)OCC1O,,MIC bound,H37Rv,BACTEC,>12.5 µg/mL
O=[N+]([O-])c1ccc(-c2nnc(S(=O)Cc3ccccc3[N+](=O)[O-])s2)s1,,MIC,,,>6.25 µg/mL
CCOc1ccc2ccccc2c1OP(=O)(OCC)OCC,,MIC bound,H37Rv,resazurin,>6.25 µg/mL
O=C(c1ccc(CCc2ccccc2)cc1)C(Cl)Cl,,MIC,H37Rv,,6.25 µg/mL
N#CSc1c(-c2ccc(Cl)cc2)nc2sc(S(N)(=O)=O)nn12,6.25 µg/mL,inhibition,H37Rv,,3%
Cc1ccc(-c2cnc(Nc3cccc(OCCCN(C)C)c3)c(C(N)=O)n2)cc1Cl,,MIC,H37Rv (ATCC 27294),resazurin,2 µg/mL
O=C(c1ccc(Sc2ccc(C(=O)C(Br)Br)cc2)cc1)C(Br)Br,,MIC,H37Rv,,6.25 µg/mL
Cc1c[nH]c(C(=O)NN)c1-c1ccc2c(-c3ccccc3)nc3ccccc3n12,,MIC,H37Rv,,>12.5 µg/mL
[O-][n+]1ccccc1SSc1cccc[n+]1[O-],,MIC90,NRP,resazurin,<0.039 µg/mL
CC(=O)NC1=C2C=CC=C3C(=O)N(C/C=C\Cn4cc(C)c(=O)[nH]c4=O)C(C=C1)C32,,EC50,H37Rv,resazurin,19 µg/mL
Cc1c2cc[n+](CCN3CCCCC3)cc2c(C)c2c1[nH]c1ccc(O)cc12,,MIC,H37Ra,,6.25 µM
O=C(c1ccc(-c2ccc(C(=O)C(Br)Br)cc2)cc1)C(Br)Br,,MIC,H37Rv,,6.25 µg/mL
O=C(O)c1cc(O)cc(O)c1N=Nc1ccc(/C=C/c2ccc(N=Nc3c(O)cc(O)cc3C(=O)O)cc2S(=O)(=O)O)c(S(=O)(=O)O)c1,12.5 µg/mL,inhibition,H37Rv,BACTEC,0%
C[N+](C)(CCCCCC[N+](C)(C)CCCN1C(=O)c2cccc3cccc(c23)C1=O)CCCN1C(=O)c2cccc3cccc(c23)C1=O,,MIC,H37Ra,,12.5 µM
N#Cc1nc2cc(C(F)(F)F)ccc2nc1N,,MIC,H37Rv,,>12.5 µg/mL
COc1ccc(-c2cn3nc(C(F)(F)F)sc3n2)cc1,6.25 µg/mL,inhibition,H37Rv,,31%
CN(C)CCCOc1cccc(Nc2ncc(-c3cncnc3)nc2C(N)=O)c1,,MIC,H37Rv (ATCC 27294),resazurin,>32 µg/mL
CCOC(=O)c1[nH]cc(C)c1-c1ccc2c(-c3ccccc3)nc3ccccc3n12,12.5 µg/mL,inhibition,H37Rv,,98%
CCS[C@H]1[C@H](N=[N+]=[N-])[C@@H](CO)O[C@H]1n1cnc2c(N)ncnc21,12.5 µg/mL,inhibition,H37Rv,BACTEC,-6%
Cc1cn([C@@H]2C[C@H](O)[C@@H](CNC(=S)Nc3ccc(Cl)c(C(F)(F)F)c3)O2)c(=O)[nH]c1=O,6.25 µg/mL,inhibition,H37Rv,resazurin,34%
O=[N+]([O-])c1cccc(CS(=O)c2nnc(-c3ccc([N+](=O)[O-])s3)s2)c1,,MIC,,,>6.25 µg/mL
CCOC(=O)c1c[nH]c(C(=O)OCC)c1-c1cc2c(-c3ccccc3)nc3ccccc3n2c1,12.5 µg/mL,inhibition,H37Rv,,89%
CCOC(=O)Nc1cc(N)c([N+](=O)[O-])c(NCCc2ccc(S(C)(=O)=O)cc2)c1,12.5 µg/mL,inhibition,H37Rv,,30%
Cc1cc(Cc2cc(C)cc(S(=O)(=O)O)c2O)c(O)c(S(=O)(=O)O)c1,12.5 µg/mL,inhibition,H37Rv,BACTEC,0%
O=[N+]([O-])c1ccc(-c2nnc(S(=O)(=O)Cc3ccccc3[N+](=O)[O-])s2)s1,,MIC,,,>6.25 µg/mL
CO[C@H]1/C=C/O[C@@]2(C)Oc3c(C)c(O)c4c(O)c(c(CN5CCN(C)CC5)c(O)c4c3C2=O)NC(=O)/C(C)=C\C=C\[C@H](C)[C@H](O)[C@@H](C)[C@@H](O)[C@@H](C)[C@H](OC(C)=O)[C@@H]1C,,MIC,H37Ra,,6.25 µM
CC(=O)NNc1nc(C)c(C(=O)NNC(=O)C(=O)Nc2ccc(Cl)c([N+](=O)[O-])c2)s1,,MIC bound,H37Rv,resazurin,>6.25 µg/mL
CC(=O)O[C@@H]1CC(=O)O[C@H](C)C[C@@H]2O[C@@H]2/C=C/C(=O)[C@H](C)C[C@H](CC=O)[C@H](OC2OC(C)C(OC3CC(C)(O)C(OC(=O)CC(C)C)C(C)O3)C(N(C)C)C2O)[C@H]1O,,MIC,H37Ra,,12.5 µM
CC1(C)S[C@@H]2[C@H](NC(=O)Cc3ccccc3)C(=O)N2[C@H]1C(=O)O,,MIC,H37Ra,,256 µg/mL
NNC(=O)c1ccncc1,,MIC,,,7 µM
CO[C@H]1/C=C/O[C@@]2(C)Oc3c(C)c(O)c4c(O)c(c(/C=N/N5CCN(C)CC5)c(O)c4c3C2=O)NC(=O)/C(C)=C\C=C\[C@H](C)[C@H](O)[C@@H](C)[C@@H](O)[C@@H](C)[C@H](OC(C)=O)[C@@H]1C,,MIC100,H37Rv,resazurin,0.05 µg/mL
Cc1ccc(-c2cnc(Nc3ccc(OCCCN4CCN(C)CC4)nc3)c(C(N)=O)n2)c(F)c1,,MIC,H37Rv (ATCC 27294),resazurin,<0.5 µg/mL
CC(C)(C)C1=CC(=C2C(=O)C(=O)c3ccccc3C2=O)C=C(C(C)(C)C)C1=O,12.5 µg/mL,inhibition,H37Rv,BACTEC,99%
CCNC(=O)c1nc(-c2ccc(C)c(F)c2)cnc1Nc1cnc(OCCCN2CCN(C)CC2)nc1,,MIC,H37Rv (ATCC 27294),resazurin,16 µg/mL
CCn1cc(C(=O)O)c(=O)c2cc(F)c(N3CCNCC3)nc21,,MIC90,64 strains,,4 µg/mL
NC(=O)C(=O)c1c(-c2ccccc2)c(-c2ccccc2)c2n1CCC2,,MIC bound,H37Rv,resazurin,>6.25 µg/mL
CO[C@H]1[C@@H](O)[C@@H](C)O[C@H](O[C@H]2[C@H](Oc3cccc4c(O)c5c(=O)oc6ccc(C)c7c(=O)oc(c34)c5c67)O[C@H](C)[C@H](O)[C@@H]2O)[C@@H]1O,,MIC,H37Ra,,1.56 µM
CCOC(=O)N1c2ccccc2S(=O)(=O)c2ccccc21,,MIC bound,H37Rv,BACTEC,>12.5 µg/mL
Nc1ncnc2c1cnn2Cc1cnnn1COCCO,,EC50,H37Rv,BACTEC,>12.5 µg/mL
Cc1nc(C(N)=O)c(=O)[nH]c1C,,MIC,H37Rv,BACTEC,≥12.5 µg/mL
O=C(NN=C1CCCCC1)c1ccncc1,,MIC,,,1 µg/mL
O=S(=O)(c1ccccc1)N1c2ccccc2Sc2ccccc21,,MIC bound,H37Rv,BACTEC,>12.5 µg/mL
OCCOCn1nncc1Cn1ncc2c(NCc3ccccc3)ncnc21,6.25 µg/mL,inhibition,H37Rv,BACTEC,11%
O=[N+]([O-])c1ccc(-c2cn3nc(C(F)(F)F)sc3n2)cc1,,MIC,H37Rv,,>6.25 µg/mL
c1ccc(C2(c3ccc(C4(c5ccccc5)Oc5ccccc5S4)[nH]3)Oc3ccccc3S2)cc1,,MIC bound,H37Rv,BACTEC,>12.5 µg/mL
CCc1cc(C(N)=S)ccn1,,MIC,,,62 µM
CC(=O)Oc1cc2nc3ccccc3nc2cc1N(C)C,,MIC,H37Rv,BACTEC,0.2 µg/mL
O=[N+]([O-])c1cn2c(n1)OC[C@@H](OCc1ccc(C(F)(F)F)nc1)C2,,MIC90,H37Rv,resazurin,0.053 µM
NCCCNCCCCNC(=O)C(O)NC(=O)CCCCCCN=C(N)N,12.5 µg/mL,inhibition,H37Rv,BACTEC,44%
CCCN(CCC)C(=S)C(N)=S,,MIC,,,31 µM
CCN(CC)CCNc1ccc(C)c2sc3cc(Cl)ccc3c(=O)c12,12.5 µg/mL,inhibition,H37Rv,BACTEC,99%
O=C(CCl)c1ccc(-c2ccc(C(=O)CCl)cc2)cc1,,MIC,H37Rv,,12.5 µg/mL

Again, the opening 8 rows:

smiles,dose,measure,strain or isolate,method,value
COC1OC2COC1(OC)C1OC(C)(C)OC21,12.5 µg/mL,inhibition,H37Rv,BACTEC,0%
Cc1ccc(-c2cnc(Nc3ccc(OCCCN4CCN(C)CC4)cc3)c(C(N)=O)n2)cc1C,,MIC,H37Rv (ATCC 27294),resazurin,1 µg/mL
N#Cc1nc2cc(C(F)(F)F)ccc2nc1Cl,,EC50,H37Rv,,>12.5 µg/mL
Cc1c2oc3c(C)ccc(C(=O)NCCN4CCN(c5ccccc5)CC4)c3nc-2c(C(=O)NCCN2CCN(c3ccccc3)CC2)c(N)c1=O,,MIC bound,H37Rv,BACTEC,>12.5 µg/mL
CC1=CC(=Nc2[nH+]cc(-c3ccc(C)c(F)c3)nc2C(N)=O)CC(=O)N1CCN1CCOCC1,,MIC,H37Rv (ATCC 27294),resazurin,2 µg/mL
OCCOCn1cc(Cn2ncc3c(SCc4ccccc4)ncnc32)nn1,,EC50,H37Rv,BACTEC,<6.25 µg/mL
C#C[C@@]12O[C@]1(CO)[C@@H]1[C@@H](O)C[C@H]3C(C)(C)CCC[C@]3(C)[C@H]1CC2=O,,MIC,Resistant strains,,100 µg/mL
OC(c1cc(-c2ccccc2)nc2c1ccc1ccccc12)C1CCCCN1,,MIC,H37Ra,,12.5 µM

MIC bound comes from a single tested concentration. Blank or dashed fields: not listed here. ECn is the concentration giving n% inhibition of infection, replication or growth. A number after MIC or MFC names an inhibition level or a share of isolates. Conditions beyond the fields shown may differ between rows.